Measured values from several laboratories, pooled; numbers as filed in NIAID ChemDB.

Common to all: enzyme or target tests

ICn: concentration for n% inhibition. Blank or dashed fields: not listed here. Fold resistance has wild type as its base. Lines come from different laboratories, so protocols vary. Percent inhibition refers to the dose given; in toxicity tests it is the harm to the cells. a–b is a range or a potency band.

compound | protein | measure | method | dose | changes | strain | species | result
Cc1ccc(-c2ccc(C=C3SC(=S)N(c4ccc(C(=O)O)cc4)C3=O)o2)nc1 | NS5 polymerase | IC50 | - | - | - | - | Bovine viral diarrhea virus | ≤1 µM
CC(C)N(C(=O)O[C@@H]([C@@H]1OC(C(=O)O)=C[C@H](N)[C@H]1NC(=O)O)[C@H](C)CO)C(C)C | Sialidase | IC50 | - | - | - | H3N2 AICHI | Influenza A virus | 48 µM
Clc1cc(CN2CCCNCCNCCCNCC2)cc(Cl)n1 | CXCR4 | fold resistance | - | - | CXCR4-H281A | - | - | 6.6
CN1CCN(c2cc3c(cc2F)c(=O)c(C(=O)O)cn3C2CC2)CC1 | DNA gyrase | IC50 | - | - | - | - | Streptococcus pneumoniae | 142 µg/mL
CC(=O)Nc1ccc(C(=O)O)cc1 | DHPS | inhibition | - | 1 µM | - | RH | Toxoplasma gondii | 8.3%
CC(C)=CCN1Cc2cccc3[nH]c(=S)n(c23)C[C@@H]1C | Reverse transcriptase | fold resistance | nucleotide incorporation | - | RT-Y271S | - | HIV | 125
Cn1c(=O)sn(-c2cccc3ccccc23)c1=O | Alanine racemase | IC50 | HPLC | - | - | H37Rv | Mycobacterium tuberculosis | 0.12 µM
Nc1nc(N)c2cc(F)ccc2n1 | DHFR | IC50 | - | - | - | - | Toxoplasma gondii | 104 µM
C[C@H](CO)[C@@H](OC(=O)NCCO[C@@H]1O[C@@H](CO)[C@H](O)[C@@H](O)[C@H]1O)[C@@H]1OC(C(=O)O)=C[C@H](N=C(N)N)[C@H]1NC(=O)O | Sialidase | IC50 | - | - | - | H3N2 AICHI | Influenza A virus | 0.013 µM
CC1(C)N=C(N)N=C(N)N1c1ccc(CN2C(N)=NC(N)NC2(C)C)cc1 | DHFR | IC50 | - | - | - | - | Toxoplasma gondii | 0.017 µM
NC1CCN(c2ccc3c(=O)c(C(=O)O)cn(C4CC4)c3c2Cl)C1 | DNA gyrase | IC50 | - | - | - | - | Streptococcus pneumoniae | 37.7 µg/mL
COc1ccc(OC)c(-c2cncc(N3CCN(c4ccc(F)cc4)CC3)n2)c1 | UL97 kinase | inhibition | - | 10 µM | - | - | Cytomegalovirus | >15%
CCCNC(=O)O[C@@H]([C@@H]1OC(C(=O)O)=C[C@H](N)[C@H]1NC(=O)O)[C@H](C)CO | Sialidase | IC50 | - | - | - | H3N2 AICHI | Influenza A virus | 4.2 µM
C/C(=N\NC(=S)NNC(=S)Nc1cccc(Cl)c1)c1ccccn1 | Ribonucleotide reductase | IC50 | - | - | - | - | Herpes simplex virus 1 | 5 µM
C[C@H](CO)[C@@H](OC(=O)NCCSc1ncccn1)[C@@H]1OC(C(=O)O)=C[C@H](N=C(N)N)[C@H]1NC(=O)O | Sialidase | IC50 | - | - | - | Victoria | Influenza B virus | 0.084 µM
CN1C(=O)c2ccccc2C(CC(=O)c2ccc(F)cc2)C1=O | Protease | IC50 | - | - | - | Serotype 2 | Rhinovirus | 21.8 µM
CN1CCN(c2ccc3c(=O)c(C(=O)O)cn(C4CC4)c3c2)CC1 | Topoisomerase II | IC50 | - | - | - | - | Streptococcus pneumoniae | 106 µg/mL
C/C(=N\NC(=S)NNC(=S)Nc1cccc(I)c1)c1ccccn1 | Ribonucleotide reductase | IC50 | - | - | - | - | Herpes simplex virus 1 | >5 µM
O=C(CCn1ncc2c(=O)oc3ccccc3c21)Nc1ccccc1 | Inosine monophosphate dehydrogenase | IC50 | absorbance | - | - | - | Cryptosporidium parvum | 5 µM
CCCC(=O)C1C(=O)N(CC(=O)N2CCCC2C(=O)O)C(=O)c2ccccc21 | Protease | IC50 | - | - | - | Serotype 14 | Rhinovirus | 56.9 µM
CCCCCCCCCCCNc1nnc(NC(=O)c2cc(F)cc(F)c2)s1 | Polymerase | IC50 | - | - | - | - | Human cytomegalovirus | >25 µM
Cn1c(=O)sn(-c2ccccc2)c1=O | Alanine racemase | IC50 | HPLC | - | - | mc2155 | Mycobacterium smegmatis | 25.53 µM
CO[C@H](C(=O)NO)[C@@H](CC(C)C)C(=O)N[C@H](C(=O)O)c1ccccc1 | PfM1AAP | Ki | fluorescence | - | - | - | Plasmodium falciparum | 2.4 µM
Cc1cccc(Cl)c1-n1sc(=O)n(CC2CC2)c1=O | Alanine racemase | IC50 | HPLC | - | - | mc2155 | Mycobacterium smegmatis | >100 µM
O=C(CCCCCl)Nc1nnc(NCCSc2ccccc2)s1 | Polymerase | IC50 | - | - | - | - | Human cytomegalovirus | >25 µM
CC(=O)CC1(O)c2c3[nH]c4ccccc4c3cc[n+]2C2C=CC=CC21 | p56lck tyrosine kinase | inhibition | ELISA | 600 µM | - | - | - | 92%
CSc1nc2nc(N)nc(N)c2c2c1CCCC2 | DHFR | IC50 | - | - | - | - | Pneumocystis carinii | >30 µM
C[C@H]1NCc2cc(-c3ccc4c(=O)c(C(=O)O)cn(C5CC5)c4c3OC(F)F)ccc21 | Topoisomerase II | IC50 | - | - | - | - | Streptococcus pneumoniae | 0.844 µg/mL
C[C@@H]1CN(c2c(F)c(N)c3c(=O)c(C(=O)O)cn(C4CC4)c3c2F)C[C@H](C)N1 | DNA gyrase | IC50 | - | - | - | J24 (quinolone- penicillin-sensitive) | Streptococcus pneumoniae | 69 µg/mL
CC(C)c1ccc(-n2c(=O)sn(-c3ccc(SC(F)(F)F)cc3)c2=O)cc1 | Alanine racemase | IC50 | HPLC | - | - | H37Rv | Mycobacterium tuberculosis | 0.17 µM
CCN(CC)C(=O)c1cc(=O)c(O)c2n1CCN(Cc1ccc(Cl)c(Cl)c1)C2=O | Integrase | IC50 | ELISA | - | - | - | HIV-1 | 0.01–0.1 µM
CCCN(CCC)C(=O)O[C@@H]([C@@H]1OC(C(=O)O)=C[C@H](N)[C@H]1NC(=O)O)[C@H](C)CO | Sialidase | IC50 | - | - | - | H3N2 AICHI | Influenza A virus | 9.8 µM
O=c1sn(-c2ccc([N+](=O)[O-])cc2Cl)c(=O)n1C1Cc2ccccc2C1 | Alanine racemase | IC50 | HPLC | - | - | H37Rv | Mycobacterium tuberculosis | 0.05 µM
Cc1cccc(/C=N/NC(=S)NNC(=S)Nc2ccccc2Cl)n1 | Ribonucleotide reductase | IC50 | - | - | - | - | Herpes simplex virus 1 | >5 µM
CCOC(=O)c1cccc(-n2sc(=O)n(C3Cc4ccccc4C3)c2=O)c1 | Alanine racemase | IC50 | HPLC | - | - | mc2155 | Mycobacterium smegmatis | >100 µM
CC(C)C(=O)c1cn2c(c(O)c1=O)C(=O)N(Cc1ccc(F)cc1)CC2 | Integrase | IC50 | ELISA | - | - | - | HIV-1 | 0.01–0.1 µM
Nc1nc2c(ncn2[C@H]2CO[C@@H](COP(=O)(O)OP(=O)(O)OP(=O)(O)O)O2)c(=O)[nH]1 | Reverse transcriptase | Ki | radiometric | - | RT-Q151M | - | HIV | 0.093 µM
O=C(Nc1nnc(NC2CCN(Cc3ccccc3)CC2)s1)c1ccc(I)cc1 | Polymerase | IC50 | - | - | - | - | Human cytomegalovirus | >25 µM
O=C(O)CCN1C(=O)C(=Cc2ccc(-c3ccc(Br)cc3)o2)SC1=S | NS5 polymerase | IC50 | - | - | - | - | Bovine viral diarrhea virus | ≤1 µM
Cc1cccc(N2CCN(c3cncc(-c4ccc(C(N)=O)cc4)n3)CC2C)c1 | UL97 kinase | inhibition | - | 1 µM | - | - | Cytomegalovirus | <50%
CSCCCN1C(=O)c2ccccc2C(CC(=O)c2ccccc2)C1=O | Protease | IC50 | - | - | - | Serotype 14 | Rhinovirus | >200 µM
O=C1c2c(O)c(=O)c(-c3ccccn3)cn2CCN1Cc1ccc(F)cc1 | Integrase | IC50 | ELISA | - | - | - | HIV-1 | 0.01–0.1 µM
CC1(C)S[C@@H]2[C@H](NC(=O)Cc3ccccc3)C(=O)N2[C@H]1C(=O)O | Topoisomerase IV | IC50 | - | - | - | J24 (quinolone- penicillin-sensitive) | Streptococcus pneumoniae | >200 µg/mL
COc1ccc(OC(=O)c2csc(Cc3c(Cl)cccc3Cl)n2)cc1 | Farnesyl-protein transferase | IC50 | - | - | - | - | Candida albicans | >100 µM
O=C(O)c1ccc(-n2c(O)c(C=c3ccc(=C4N=C(Cl)C(Cl)=N4)o3)sc2=S)cc1 | NS5 polymerase | IC50 | - | - | - | - | Bovine viral diarrhea virus | ≤1 µM
NNC(=O)c1ccncc1 | Citrate synthase | inhibition | - | 1000 µM | - | H37RV (INH 10 ug/mL-R) | Mycobacterium tuberculosis | 0%
CNC(=O)c1cn2c(c(O)c1=O)C(=O)N(Cc1ccc(Cl)cc1)CC2 | Integrase | IC50 | ELISA | - | - | - | HIV-1 | 0.01–0.1 µM
C/C(=N\NC(=S)NNC(=S)Nc1ccc(C#N)cc1)c1ccccn1 | Ribonucleotide reductase | IC50 | - | - | - | - | Herpes simplex virus 1 | >5 µM
Fc1ccc(-c2cncc(N3CCN(c4cccc(Cl)c4)CC3)n2)cc1Cl | UL97 kinase | IC50 | - | - | - | - | Cytomegalovirus | <100 µM
CC1(c2ccc(OCC#N)c(Cl)c2Cl)C(=O)c2ccccc2C1=O | Geranylgeranyl-protein transferase I | IC50 | - | - | - | - | Candida albicans | 0.08 µM
CCOC(=O)CCCN1C(=O)c2ccccc2C(C(=O)c2ccccc2)C1=O | Protease | IC50 | - | - | - | Serotype 2 | Rhinovirus | 3.9 µM
O=c1[nH][nH]c(=O)c2c1ncn2[C@@H]1O[C@H](CO)[C@@H](O)[C@H]1O | NTPase/helicase | IC50 | - | - | - | - | West Nile virus | 0.28 µM
C/C(=N\NC(=S)NNC(=S)NCCCN1CCOCC1)c1ccccn1 | Ribonucleotide reductase | IC50 | - | - | - | - | Herpes simplex virus 1 | >5 µM
O=C(CCn1ncc2c(=O)oc3ccccc3c21)Nc1cccc(Cl)c1 | Inosine monophosphate dehydrogenase | IC50 | absorbance | - | - | - | Cryptosporidium parvum | >5 µM
Cc1cc2nc(N)nc(N)c2cc1C | DHFR | IC50 | - | - | - | - | Pneumocystis carinii | 5.3 µM
COc1ccc(C2CC(c3cc4ccccc4o3)=NN2c2ccc([N+](=O)[O-])cc2)cc1 | Geranylgeranyl-protein transferase I | IC50 | - | - | - | - | Candida albicans | 0.05 µM
Nc1nc(N)c2nc(Cc3cccc(C(F)(F)F)c3)c(Cc3cccc(C(F)(F)F)c3)nc2n1 | DHFR | IC50 | - | - | - | - | Toxoplasma gondii | 39 µM
CCCCCCCCCCCCC/C=C/[C@@H](O)[C@H](CO[C@@H]1O[C@H](CO)[C@H](O)[C@H](OS(=O)(=O)O)[C@H]1O)NC(=O)CCCCCCCCCCCCCCCCCCCCCCC | Sialidase | inhibition | - | 200 µM | - | Influenza A/Victoria/2/82 (H3N2) | Influenza A virus | 98.1%
CCCCCCCNC(=O)O[C@@H]([C@@H]1OC(C(=O)O)=C[C@H](N=C(N)N)[C@H]1NC(=O)O)[C@H](C)CO | Sialidase | IC50 | - | - | - | Victoria | Influenza B virus | 0.0033 µM
CCCCN1C(=O)c2ccccc2C(C(C)=O)C1=O | Protease | IC50 | - | - | - | Serotype 2 | Rhinovirus | >200 µM
Fc1ccc(-c2cncc(N3CCN(c4cccc(C(F)(F)F)c4)CC3)n2)cc1Cl | UL97 kinase | inhibition | - | 10 µM | - | - | Cytomegalovirus | >15%
O=C(O)c1ccc(-c2ccc(C=C3SC(=S)N(c4ccc(C(=O)O)cc4)C3=O)o2)cc1 | NS5 polymerase | IC50 | - | - | - | - | Bovine viral diarrhea virus | ≤1 µM
O=C(Nc1nnc(NCCc2c[nH]c3ccccc23)s1)c1ccc(Br)cc1 | Polymerase | IC50 | - | - | - | - | Human cytomegalovirus | >25 µM
OCc1ccc(-c2cncc(N3CCN(c4ccncc4)CC3)n2)cc1 | UL97 kinase | IC50 | - | - | - | - | Cytomegalovirus | <10 µM
Nc1nc(=O)c2ncn(COCCO)c2c(=O)[nH]1 | NTPase/helicase | IC50 | helicase activity | - | - | - | West Nile virus | >500 µM

For reference, 9 entries again:

| compound | protein | measure | method | dose | changes | strain | species | result |
|---|---|---|---|---|---|---|---|---|
| Cc1cccc(/C=N/NC(=S)NNC(=S)Nc2ccccc2Cl)n1 | Ribonucleotide reductase | IC50 | - | - | - | - | Herpes simplex virus 1 | >5 µM |
| COc1ccc(OC)c(-c2cncc(N3CCN(c4ccc(F)cc4)CC3)n2)c1 | UL97 kinase | inhibition | - | 10 µM | - | - | Cytomegalovirus | >15% |
| CCN(CC)C(=O)c1cc(=O)c(O)c2n1CCN(Cc1ccc(Cl)c(Cl)c1)C2=O | Integrase | IC50 | ELISA | - | - | - | HIV-1 | 0.01–0.1 µM |
| Cc1cccc(N2CCN(c3cncc(-c4ccc(C(N)=O)cc4)n3)CC2C)c1 | UL97 kinase | inhibition | - | 1 µM | - | - | Cytomegalovirus | <50% |
| O=C1c2c(O)c(=O)c(-c3ccccn3)cn2CCN1Cc1ccc(F)cc1 | Integrase | IC50 | ELISA | - | - | - | HIV-1 | 0.01–0.1 µM |
| Cc1cccc(Cl)c1-n1sc(=O)n(CC2CC2)c1=O | Alanine racemase | IC50 | HPLC | - | - | mc2155 | Mycobacterium smegmatis | >100 µM |
| CCCN(CCC)C(=O)O[C@@H]([C@@H]1OC(C(=O)O)=C[C@H](N)[C@H]1NC(=O)O)[C@H](C)CO | Sialidase | IC50 | - | - | - | H3N2 AICHI | Influenza A virus | 9.8 µM |
| Fc1ccc(-c2cncc(N3CCN(c4cccc(C(F)(F)F)c4)CC3)n2)cc1Cl | UL97 kinase | inhibition | - | 10 µM | - | - | Cytomegalovirus | >15% |
| CNC(=O)c1cn2c(c(O)c1=O)C(=O)N(Cc1ccc(Cl)cc1)CC2 | Integrase | IC50 | ELISA | - | - | - | HIV-1 | 0.01–0.1 µM |